Results of unrelated studies side by side (data: NIAID ChemDB).

Shared fields: tests in culture; organism: HIV-1; read by: syncytia; endpoint: EC50

ECn is the concentration giving n% inhibition of infection, replication or growth. Blank or dashed fields: not listed here. Neighbouring rows are from separate reports.

CC1=C(C(=O)Nc2cccc(C(=O)OC(C)C)c2)SCCO1 ; mutations: RT-V106A ; strain or isolate: Nevirapine-resistant (RT V106A) ; cell line: CEM ; result: >10 µg/mL
C=CCOC(=S)Nc1ccc(Cl)c(C(=O)OC(C)C)c1 ; mutations: RT-V106A ; cell line: CEM ; result: 20.71 µM
Cc1cn([C@H]2C[C@H](SS[C@H]3C[C@H](n4cc(C)c(=O)[nH]c4=O)O[C@@H]3CO)[C@@H](CO)O2)c(=O)[nH]c1=O ; strain or isolate: IIIB ; cell line: CEM ; result: 50 µM
C[C@H](Cn1cnc2c(N)ncnc21)OCP(=O)(O)O ; strain or isolate: IIIB ; cell line: CEM ; result: 3 µM
CO/N=C/c1cc(NC(=S)OC(C)C)ccc1Cl ; strain or isolate: IIIB ; cell line: CEM ; result: 0.209 µM
O=[N+]([O-])c1ccc(OCc2ccccc2)cc1 ; strain or isolate: IIIB ; cell line: C8166 ; result: 53.26 µg/mL
Cc1cn([C@@H]2C[C@H](OC(C(=O)O)P(=O)(O)O)[C@@H](O)[C@H]2O)c(=O)[nH]c1=O ; strain or isolate: IIIB ; cell line: CEM ; result: >250 µM
CN1CCN(C(=O)c2ccc3c(=O)c4ccccc4[nH]c3c2)CC1 ; mutations: RT-Y181C ; cell line: CEM ; result: 1.347 µM
N#Cc1c(Nc2ccccc2)c(F)c2nc(N)nc(N)c2c1F ; strain or isolate: IIIB ; cell line: C8166 ; result: 0.4 µg/mL
CCCC1=C(C(=O)Nc2ccc(Cl)c(C(=O)OCC)c2)SCCO1 ; mutations: RT-Y181C ; strain or isolate: PYR-resistant (RT Y181C) ; cell line: CEM ; result: >10 µg/mL
O=C(O)c1cn(-c2cccc(N3CCOCC3)c2)c2c(Cl)c(N3CCN(c4ccccc4)CC3)c(F)cc2c1=O ; cell line: PBL ; result: 0.4 µM
CSS[C@H]1C[C@H](n2cc(C)c(=O)[nH]c2=O)O[C@@H]1CO ; strain or isolate: IIIB ; cell line: CEM ; result: 10 µM
Cc1cccc(CNc2nc3cc(C(=O)NC(C)(CO)CO)ccc3n2C2CCCCCC2)c1 ; cell line: H9 ; conditions: 20% FBS ; result: 0.1 µM
Cc1ccc(C)c(CS(=O)(=O)c2ccccn2)c1 ; strain or isolate: RF ; cell line: CEM ; result: 8.4 µg/mL
CC1=C(C(=O)Nc2ccc(Cl)c(C(=O)OC(C)C)c2)SCCO1 ; mutations: RT-E138K ; strain or isolate: TSAO-resistant (RT E138K) ; cell line: CEM ; result: >20 µg/mL
CC(C)COC(=O)c1cc(NC(=S)OC(C)C)ccc1Cl ; mutations: RT-L100I ; cell line: CEM ; result: 2.729 µM
CC1=C(C(=O)Nc2cc(C(=O)OC(C)C)c(C)cc2F)SCCO1 ; strain or isolate: IIIB ; cell line: CEM ; result: 2.3 µg/mL
COC(=S)Nc1ccc(Cl)c(C(=O)OC(C)C)c1 ; mutations: RT-E138K ; cell line: CEM ; result: >34.75 µM
COCCCCCCCCCCCC(=O)O ; strain or isolate: IIIB ; cell line: MT-4 ; result: 6.8 µM
Cc1cccc(CNc2nc3cc(C(=O)NC(C)CO)ccc3n2C2CCCCCC2)c1C ; cell line: H9 ; conditions: 20% FBS ; result: 5 µM
CC(C)OC(=S)Nc1ccc(Cl)c(COC(C)(C)C)c1 ; mutations: RT-L100I ; cell line: CEM ; result: >31.66 µM
COc1cc(C[C@H]2COC(=O)[C@@H]2Cc2ccc(O[C@@H]3O[C@H](CO)[C@@H](O)[C@H](O)[C@H]3O)c(OC)c2)ccc1O ; strain or isolate: IIIB ; cell line: C8166 ; result: 16.36 µg/mL
CC(C)OC(=S)Nc1ccc(Cl)c(C(=O)OCC(F)(F)F)c1 ; mutations: RT-Y181C ; cell line: CEM ; result: >28.11 µM
CC1=C(C(=O)Nc2ccc(Cl)c(C(=O)OC3CCCCC3)c2)SCCO1 ; strain or isolate: IIIB ; cell line: CEM ; result: 0.04 µg/mL
c1ccc(COc2ccccc2)cc1 ; strain or isolate: IIIB ; cell line: C8166 ; result: 57.99 µg/mL
CCC(CC)OC(=O)c1cc(NC(=S)OC(C)C)ccc1Cl ; mutations: RT-V106A ; cell line: CEM ; result: 11.63 µM
COc1ccccc1N1CCN(c2c(F)cc3c(=O)c(C(=O)O)cn(-c4cccc(N5CCOCC5)c4)c3c2Cl)CC1 ; cell line: PBL ; result: 0.7 µM
C/C=C\COc1cc(NC(=S)OC(C)C)ccc1OC ; mutations: RT-L100I ; cell line: CEM ; result: 10.16 µM
Cc1ccc(C)c(CS(=O)(=O)c2cccc[n+]2[O-])c1 ; strain or isolate: MN ; cell line: CEM ; result: 10 µg/mL
CC(C)=CCOc1cc(NC(=S)c2ccoc2C)ccc1Cl ; mutations: RT-E138K ; strain or isolate: IIIB ; cell line: CEM ; result: 0.015 µM
CCOC(=O)c1cc(NC(=S)OC(C)C)ccc1SC ; mutations: RT-V106A ; cell line: CEM ; result: 15.95 µM
COc1ccc(S(=O)(=O)N(CC(C)C)C[C@@H](O)[C@H](Cc2ccccc2)NC(=O)[C@@H]2CCCC3(C2)OCCO3)cc1 ; strain or isolate: IIIB ; cell line: MT-4 ; result: 0.11 µM
NC(=O)CC[C@H](NC(=O)COc1cccc(NC(=O)[C@@H](N)Cc2ccc(O)cc2)c1)C(=O)N[C@@H](Cc1c[nH]c2ccccc12)C(=O)N[C@@H](CC(=O)O)C(=O)N[C@@H](Cc1ccccc1)C(=O)NCC(=O)O ; strain or isolate: GUN1 WT ; cell line: MT-4 ; result: >100 µg/mL
CCOC(=O)c1cc(NC(=O)C2=C(CC)OCCS2)ccc1Cl ; mutations: RT-V106A ; strain or isolate: Nevirapine-resistant (RT V106A) ; cell line: CEM ; result: 7 µg/mL
COc1ccc(COc2ccccc2)cc1 ; strain or isolate: IIIB ; cell line: C8166 ; result: 18.14 µg/mL
Cc1cn([C@H]2C[C@H](F)[C@@H](COC(=O)CCCCCCCCCCCBr)O2)c(=S)[nH]c1=O ; cell line: MT-2 ; result: ~0.05 µM
O=[N+]([O-])c1ccc(COc2ccc([N+](=O)[O-])cc2)cc1 ; strain or isolate: IIIB ; cell line: C8166 ; result: 58.2 µg/mL
CC1=C(C(=O)Nc2cc(C(=O)OC(C)C)c(F)cc2F)SCCO1 ; mutations: RT-L100I ; strain or isolate: TIBO-resistant (RT L100I) ; cell line: CEM ; result: >10 µg/mL
COc1ccc(C)cc1CS(=O)(=O)c1cccc[n+]1[O-] ; strain or isolate: IIIB ; cell line: CEM ; result: 5.9 µg/mL
Cc1cn([C@H]2C[C@H](F)[C@@H](CO)O2)c(=S)[nH]c1=O ; cell line: MT-2 ; result: 0.5 µM
Cc1cccc(CNc2nc3cc(C(=O)NC(C)(CO)CO)ccc3n2C2CCCCCC2)c1C ; cell line: H9 ; conditions: 2% FBS ; result: 3 µM
COc1ccc(N2CCN(c3c(F)cc4c(=O)c(C(=O)O)cn(-c5cccc(N6CCOCC6)c5)c4c3Cl)CC2)cc1 ; cell line: PBL ; result: 0.35 µM
CC(C)OC(=S)Nc1ccc(Cl)c(C(=O)OC2CCCC2)c1 ; mutations: RT-E138K ; cell line: CEM ; result: 1.755 µM
CC(CO)NC(=O)c1ccc2c(c1)nc(NCc1ccccc1)n2C1CCCCCC1 ; cell line: H9 ; conditions: 20% FBS ; result: 1.5 µM
Cc1cn([C@H]2C[C@H](F)[C@@H](COC(=O)CCCCCCCCCCCN=[N+]=[N-])O2)c(=S)[nH]c1=O ; cell line: MT-2 ; result: ~0.05 µM
O=C(O)C(O[C@@H]1CC[C@H](n2cc(F)c(=O)[nH]c2=O)C1)P(=O)(O)O ; strain or isolate: IIIB ; cell line: CEM ; result: >250 µM
Cc1ccc(C)c(C(Cl)S(=O)(=O)c2cc(C)cc[n+]2[O-])c1 ; strain or isolate: HE ; cell line: CEM ; result: ≥4 µg/mL
CC(=O)OCCOC(=O)c1cc(NC(=S)OC(C)C)ccc1Cl ; mutations: RT-L100I ; cell line: CEM ; result: ≥27.79 µM
CN[C@@H]1[C@H](O[C@@H]2OC[C@@H](O)[C@H](O)[C@H]2O)[C@@H](O)[C@H](O[C@H]2c3cc(C)c(C(=O)N[C@H](C)C(=O)O)c(O)c3-c3c(cc4c(c3O)C(=O)c3cc(OC)cc(O)c3C4=O)[C@@H]2O)O[C@@H]1C ; strain or isolate: IIIB ; cell line: CEM ; result: 5.2 µM
CC(C)OC(=O)Oc1cc(NC(=S)OC(C)C)ccc1Cl ; mutations: RT-E138K ; cell line: CEM ; result: 3.014 µM
Cc1occc1C(=S)Nc1ccc(Cl)c(/C=N/OC(C)(C)C)c1 ; mutations: RT-Y188H ; strain or isolate: IIIB ; cell line: CEM ; result: 0.64 µM
O=C(O)c1cn(-c2ccccc2N2CCOCC2)c2cc(N3CCN(c4ccc(F)cc4)CC3)c(F)cc2c1=O ; cell line: PBL ; result: 0.7 µM
CC(C)(C)NC(=O)[C@@H]1C[C@@H]2CCCC[C@@H]2CN1C[C@@H](O)[C@H](Cc1ccccc1)NC(=O)[C@@H]1CCCS(=O)(=O)C1 ; strain or isolate: IIIB ; cell line: MT-4 ; result: 0.2 µM
Cc1ccc(C)c(C(C)S(=O)(=O)c2ccc(C)c[n+]2[O-])c1 ; strain or isolate: RF ; cell line: CEM ; result: 48 µg/mL
CCC1=C(C(=O)Nc2ccc(Cl)c(C(=O)OC(C)C)c2)SCCO1 ; mutations: RT-L100I ; strain or isolate: TIBO-resistant (RT L100I) ; cell line: CEM ; result: 0.6 µg/mL
CC(C)=CCC[C@]1(C)C=Cc2c(ccc3c2C(=O)C(O)=C(C2=C(C4=C(O)C(=O)c5c(ccc6c5C=C[C@@](C)(CCC=C(C)C)O6)C4=O)C(=O)c4c(ccc5c4C=C[C@@](C)(CCC=C(C)C)O5)C2=O)C3=O)O1 ; strain or isolate: RF ; cell line: MT-4 ; result: 0.008 µM
N#Cc1c(Nc2ccccc2)c(Cl)c2nc(N)nc(N)c2c1F ; strain or isolate: IIIB ; cell line: C8166 ; result: 0.6 µg/mL
CO/N=C(\C)COc1cc(NC(=S)OC(C)C)ccc1Cl ; mutations: RT-E138K ; cell line: CEM ; result: 1.511 µM
COc1ccc2c(c1)[nH]c1cc(OC)c(C(=O)O)cc12 ; cell line: 1A2 ; result: 34.2 µM
O=P(O)(O)OP(=O)(O)OP(=O)(O)O ; strain or isolate: IIIB ; cell line: MOLT-4/MOLT-3 ; result: >160 µg/mL
C#CCOC(=O)c1cc(NC(=S)OC(C)C)ccc1Cl ; mutations: RT-L100I ; cell line: CEM ; result: 19.24 µM
Nc1ncnc2c1ncn2[C@@H]1C[C@H](O)[C@@H](O)[C@H]1O ; strain or isolate: IIIB ; cell line: CEM ; result: >0.16 µg/mL
CC(C)O/N=C/c1cc(NC(=S)OC(C)C)ccc1Cl ; mutations: RT-Y181C ; cell line: CEM ; result: 1.061 µM
Cc1ccccc1CNc1nc2cc(C(=O)NC(C)(CO)CO)ccc2n1C1CCCCCC1 ; cell line: H9 ; conditions: 20% FBS ; result: 18 µM
O=C(O)c1cn(-c2cccc(N3CCOCC3)c2)c2c(Cl)c(N3CCN(c4ccc(F)cc4)CC3)c(F)cc2c1=O ; cell line: PBL ; result: 0.4 µM
CC(C)OC(=O)c1cc(NC(=O)OCC2CC2)ccc1Cl ; mutations: RT-E138K ; cell line: CEM ; result: 19.2 µM

Repeating the final 5 entries:

smiles	mutations	strain or isolate	cell line	conditions	result
Nc1ncnc2c1ncn2[C@@H]1C[C@H](O)[C@@H](O)[C@H]1O	-	IIIB	CEM	-	>0.16 µg/mL
CC(C)O/N=C/c1cc(NC(=S)OC(C)C)ccc1Cl	RT-Y181C	-	CEM	-	1.061 µM
Cc1ccccc1CNc1nc2cc(C(=O)NC(C)(CO)CO)ccc2n1C1CCCCCC1	-	-	H9	20% FBS	18 µM
O=C(O)c1cn(-c2cccc(N3CCOCC3)c2)c2c(Cl)c(N3CCN(c4ccc(F)cc4)CC3)c(F)cc2c1=O	-	-	PBL	-	0.4 µM
CC(C)OC(=O)c1cc(NC(=O)OCC2CC2)ccc1Cl	RT-E138K	-	CEM	-	19.2 µM